# Reference: PubChem BioAssay AID720569 (National Center for Advancing Translational Sciences (NCATS), 2013)
# The entries are a selection whose mix differs from that of the whole data set. Inconclusive results are not listed. The source made the active and inactive calls. The call rests on the fitted dose curve; in most records, active means well fitted inhibition curve with a large enough effect; inconclusive means small, poorly fitted or top-dose-only effect; inactive means no such curve, though single readings can be large or run the other way.
# System: pyruvate kinase (Trypanosoma brucei)
# Assay: qHTS of Trypanosoma Brucei Inhibitors: Confirmatory Assay for Cherry-picked Compounds; further: nearly all actives have a fitted effect of over 70% in size
# Settings: recombinant TbPYK, Kinase-Glo ATP luminescence
# From the text: Members of the Trypanosomatidae family of parasitic protozoans cause a spectrum of diseases throughout the tropical and subtropical world. Sleeping sickness, caused by two subspecies of Trypanosoma brucei, is endemic to areas of sub-Saharan Africa, while Chagas' disease, a manifestation of Trypanosoma cruzi infection, is prevalent throughout Central and South America. In addition, many species of Leishmania are responsible for a range of cutaneous and visceral diseases, causing ulcers, destructive lesions and kalaazar, a lethal infection of the viscera. These diseases cause severe public health and economic burdens on populations that are often already caught in a tragic cycle of poverty, poor nutrition and disease. Collectively, parasites of the trypanosomatid family infect 30 million people worldwide (~500 million live in endemic areas), and account for ~130K deaths annually. […]
# Two uL of TbPYK/substrate buffer (columns 1-3, 5-48) are dispensed into Greiner white solid bottom 1536-well assay plates; column 4 receives only TEA buffer as 0x TbPYK controls. […] Kinase-Glo Plus reagent is added (3 uL) and plates incubated for 10 minutes, before being transferred to a ViewLux high-throughput CCD imager (PerkinElmer) wherein single end-point measurements of luminescence are acquired using a clear filter. […]
# Potency means the concentration at half of the fitted maximal effect.
smiles,measurement,value
Cc1cc(SC(NC(=O)c2ccccc2)C(Cl)(Cl)Cl)nc(C(C)C)n1 (stereo unspecified),Potency,active: 17.8 µM
